According to patent EP4635500A1, “THERAPEUTIC AGENT FOR BACTERIAL INFECTION” (Sumitomo Pharma Co., Ltd., priority 2022, dated 2024):
Read-outs that look alike come from different tables or passages of the source.

Columns and labels:
KPC-31 = KPC-31 (Klebsiella pneumoniae, UniProt Q9F663, D178Y/H272Y); conditions: read-out: Ki app; KPC-31, class A; 30 min preincubation; n.d.: too low inhibitor activity at 100 µmol/L
[1] = test system: carbapenemase-producing Klebsiella pneumoniae; experiment: PK/PD target of Compound A with MEPM, intramuscular infection mouse model, 9 strains (Example 30, FIG. 11); type: in vivo; conditions: 5 strains of metallo-CPE
VIM-1 = VIM-1 (Pseudomonas aeruginosa, UniProt A0A0F7KYQ8); experiment: Binding rate constant k2/Ki, nitrocefin progress curves (Example 2); type: biochemical
[2] = Plasma PK of Compound A after single intravenous dose (Example 21, Table 37); type: in vivo, monkey; conditions: Monkeys (n = 2); 1 mg/kg intravenous single dose
[3] = test system: carbapenemase-producing Acinetobacter baumannii; experiment: PK/PD target of Compound A with MEPM, intramuscular infection mouse model, 5 strains (Example 26, FIG. 9); type: in vivo; conditions: 5 strains of Acinetobacter baumannii pooled; in combination with MEPM
[4] = test system: carbapenemase-producing Enterobacteriaceae (CPE), Klebsiella pneumoniae; experiment: PK/PD target of Compound A with MEPM, intramuscular infection mouse model, 5 strains (Example 25, FIG. 8); type: in vivo; conditions: 5 strains of Klebsiella pneumoniae pooled; in combination with MEPM
[5] = PK prediction in a clinical setting by allometric scaling (Example 23); design: species or system human; conditions: allometric scaling from rat, dog, monkey
[6] = Preliminary population PK analysis of Phase I data, 2-compartment model (Example 28, Table 38); design: species or system human
Acinetobacter baumannii = experiment: Systemic infection lethal mouse model, ED50 (Example 15, Table 34)
[7] = Population PK analysis of Phase I data, 2-compartment model (Example 33, Table 43); design: species or system human
[8] = Plasma PK of Compound A after single intravenous dose (Example 21, Table 37); type: in vivo, dog; conditions: Dogs (n = 2); 1 mg/kg intravenous single dose
KPC-33 = KPC-33 (Klebsiella pneumoniae, UniProt Q9F663, D178Y); conditions: read-out: Ki app; KPC-33, class A; 30 min preincubation; n.d.: too low inhibitor activity at 100 µmol/L
[9] = Plasma PK of Compound A after single intravenous dose (Example 21, Table 37); type: in vivo, rat; conditions: Rats (n = 3); 5 mg/kg intravenous single dose
[10] = Phase 1 study pharmacokinetics, 3-hour intravenous infusion (Example 31, Tables 39-42); type: in vivo, human; conditions: average (standard deviation)

N[C@@H](C(=O)N1CC(Oc2ccc3c(c2C(=O)O)OB(O)CC3)C1)c1c[nH]cn1
Ki (KPC-31): 2330 nM
%fT > 2 µg/mL required for a bacteriostatic effect [1]: 20.0%
inactivation profile (VIM-1): typical linear inactivation profile of a fast on-fast off type
t1/2 [2]: 1.30 h
%fT > 4 µg/mL required for a 2-log kill [3]: 22.3%
fAUC required for a 2-log kill [3]: 142 µg·h/mL
fAUC required for bactericidal effect (1 log kill) [3]: 74 µg·h/mL
fAUC required for bacteriostatic effect [3]: 32 µg·h/mL
%fT > 1 ug/mL required for bactericidal effect (1 log kill) [4]: 36.4%
%fT > 1 ug/mL required for bacteriostatic effect [4]: 12.2%
fAUC required for bactericidal effect (1 log kill) [4]: 134 µg·h/mL
fAUC required for bacteriostatic effect [4]: 15 µg·h/mL
t1/2 (predicted) [5]: 2.2 h
IIV V1, Coefficient of variation % (Shrinkage %) ([6]; interindividual variability): 20.8(5.3) %
IIV V2, Coefficient of variation % (Shrinkage %) ([6]; interindividual variability): 64.1(10.7) %
Proportional error, Coefficient of variation % (Shrinkage %) ([6]; residual variability): 8.54(14.7) %
effective dose of the MEPM reduced to (Acinetobacter baumannii; metallo-carbapenemase-producing Acinetobacter baumannii): 1/89
effective dose of the MEPM reduced to (Acinetobacter baumannii; serine-carbapenemase-producing Acinetobacter baumannii): 1/25
θmeropenem on CL, Estimated value (95% confidence interval) ([7]; 0 for non-combination): -0.174 (-0.262, -0.0905) ;
θeGFR on CL, Estimated value (95% confidence interval) ([7]; covariate exponent, eGFR/108): 0.455 (0.353, 0.636)
ωVp^2, Estimated value (95% confidence interval) ([7]; interindividual variability): 0.240 (0.0046, 0.5300)
CL θCL, Estimated value (95% confidence interval) ([7]; population PK, 2-compartment model): 4.54 (4.27, 4.82) L/h
C0 [8]: 6680 ng/mL
Vss [8]: 0.373 L/kg
t1/2 [8]: 2.50 h
effective dose of the MEPM reduced to (P. aeruginosa; metallo-carbapenemase-producing P. aeruginosa): 1/4
effective dose of the MEPM reduced to (P. aeruginosa; serine-carbapenemase-producing P. aeruginosa): 1/9
Ki (KPC-33): 41 nM
AUC0-∞ [9]: 13600 ± 3600 ng·h/mL
C0 [9]: 18000 ± 700 ng/mL
t1/2 [9]: 0.819 ± 0.101 h
Cmax ([10]; 500 mg every 8 hours in combination with 2 g/dose of meropenem, day 5): 32.0 (10.5) µg/mL
Cmax ([10]; 500 mg every 8 hours, day 5 of repeated administration): 24.1 (2.85) µg/mL
Cmax ([10]; 1000 mg every 8 hours, day 5 of repeated administration): 52.1 (6.32) µg/mL
Cmax ([10]; 1500 mg every 8 hours in combination with 2 g/dose of meropenem, day 5): 117 (17.3) µg/mL
Cmax ([10]; 1500 mg every 8 hours, day 5 of repeated administration): 97.0 (22.8) µg/mL
AUC0-inf ([10]; Japanese, single dose 250 mg): 55.0(7.51) µg·h/mL
AUC0-inf ([10]; Japanese, single dose 750 mg): 188(38.3) µg·h/mL
Cmax ([10]; Japanese, single dose 750 mg): 42.0(5.71) µg/mL
AUC0-inf ([10]; Japanese, single dose 1500 mg): 461(128) µg·h/mL
Cmax ([10]; Japanese, single dose 1500 mg): 93.5(21.8) µg/mL
AUC0-inf ([10]; single dose 50 mg): 11.1 (3.45) µg·h/mL
Cmax ([10]; single dose 50 mg): 2.71 (0.798) µg/mL
AUC0-inf ([10]; single dose 125 mg): 31.9 (5.71) µg·h/mL
Cmax ([10]; single dose 125 mg): 7.44 (1.16) µg/mL
AUC0-inf ([10]; single dose 250 mg): 59.7 (12.6) µg·h/mL
Cmax ([10]; single dose 250 mg): 13.1 (3.88) µg/mL
AUC0-inf ([10]; single dose 750 mg): 135 (25.8) µg·h/mL
Cmax ([10]; single dose 750 mg): 32.4 (4.76) µg/mL
AUC0-inf ([10]; single dose 1500 mg): 353 (79.1) µg·h/mL
Cmax ([10]; single dose 1500 mg): 71.3 (13. 8) µg/mL
AUC0-inf ([10]; single dose 2000 mg): 496 (86. 1) µg·h/mL
Cmax ([10]; single dose 2000 mg): 96.6 (9.99) µg/mL
